Compound potency records, mixed from different reports. Data source: NIAID ChemDB in PubChem.

All rows: tests in culture; agent: HIV-1; cell line: CEM + CEM-SS; read-out: fold resistance

Rows are shuffled and stem from different studies.

compound,strain or isolate,changes,read by,value
Cc1ccnc2c1NC(=O)c1cccnc1N2C1CC1,NL4-3,RT-A98G,cytopathic effect / XTT,10
CCc1c(Sc2ccccn2)n(COCc2ccccc2)c(=O)[nH]c1=O,IIIB(N119(III)),RT-Y181C,cytopathic effect / XTT,>333
Cc1ccnc2c1NC(=O)c1cccnc1N2C1CC1,Costatolide-resistant (RT L100I T139I),RT-L100I T139I,XTT,20
C/C=C/CSc1cc(NC(=S)c2ccsc2C)ccc1Cl,Thiazolobenzimidazole-resistant (RT V108I),RT-V108I,cytopathic effect / XTT,4.5
CCCc1cc(=O)oc2c3c(c4c(c12)OC(C)(C)C=C4)O[C@H](C)[C@@H](C)[C@@H]3O,IIIB(A17(III)),RT-K103N Y181C,cytopathic effect / XTT,1.5
CCc1c(Sc2ccccn2)n(COCc2ccccc2)c(=O)[nH]c1=O,IIIB,RT-Y181C,cytopathic effect / XTT,117
Cc1occc1C(=S)Nc1ccc(Cl)c(/C=N/OC(C)(C)C)c1,UC38-RS (RT-Y181C),RT-Y181C,cytopathic effect / XTT,6.5
CC1=C(C(=O)Nc2ccc(Cl)c(C(=O)OC(C)C)c2)SCCO1,IIIB(CALO-R(II)),RT-V90I T139I P225S,cytopathic effect / XTT,1.3
Cc1ccnc2c1NC(=O)c1cccnc1N2C1CC1,NL4-3 (RT L100I),RT-L100I,cytopathic effect / XTT,5
Cc1cn([C@H]2C[C@H](N=[N+]=[N-])[C@@H](CO)O2)c(=O)[nH]c1=O,Calanolide-resistant (RT T139I),RT-T139I,cytopathic effect / XTT,2
Cc1cn([C@@H]2O[C@H](CO[Si](C)(C)C(C)(C)C)[C@@]3(OS(=O)(=O)C=C3N)[C@H]2O[Si](C)(C)C(C)(C)C)c(=O)[nH]c1=O,UC82-R (RT-Y181C),RT-Y181C,cytopathic effect / XTT,>200
CCc1c(C(=O)c2cc(C)cc(C)c2)n(CC2CC=CC2)c(=O)[nH]c1=O,NL4-3,RT-Y181C,cytopathic effect / XTT,4.5
Cc1cn([C@H]2C[C@H](N=[N+]=[N-])[C@@H](CO)O2)c(=O)[nH]c1=O,NL4-3(RT-4XAZT+L100I),RT-D67N K70R L100I T215Y K219Q,XTT,20
O=C(Nc1ccccc1)C1=COCCS1,IIIB HEPT-resistant (RT P236L),RT-P236L,cytopathic effect / XTT,2.8
CC(C)=CCN1Cc2cccc3[nH]c(=S)n(c23)C[C@@H]1C,IIIB(N119(III)),RT-Y181C,cytopathic effect / XTT,>1000

The first 2 rows once more:

compound,strain or isolate,changes,read by,value
Cc1ccnc2c1NC(=O)c1cccnc1N2C1CC1,NL4-3,RT-A98G,cytopathic effect / XTT,10
CCc1c(Sc2ccccn2)n(COCc2ccccc2)c(=O)[nH]c1=O,IIIB(N119(III)),RT-Y181C,cytopathic effect / XTT,>333

Fold resistance has wild type as its base.